# Measurements as given in patent US20190391160A1 (priority 2016, published 2019).
# How the values were obtained:
# [1] = target: PLA2 activity of CB/NBD1 complex (Crotalus durissus terrificus, UniProt C0HM14); assay: Spectrofluorimetric PLA2 activity assay, inhibition by PMS 1062, CB/NBD1 complex; type: biochemical; conditions: read-out: Inhibition constant (Ki), β-py-C10-PG 5 and 10 μM, Dixon plot
# [2] = target: PLA2 enzymatic activity of CB (Crotalus durissus, UniProt C0HM14); assay: Spectrofluorimetric PLA2 activity assay, inhibition by PMS 1062; conditions: read-out: Inhibition constant (Ki); CB alone, β-py-C10-PG 5 and 10 μM, Dixon plot, competitive
compound,measurement,setting,value
CCCCCCCCCCCCCCOc1ccc(Cc2noc(=O)[nH]2)cc1,Ki,[1],480 nM
same,Ki,[2],25 nM
